Anti-infective test results gathered from many reports (values: NIAID ChemDB through PubChem).

Common to all: whole-cell or culture tests; agent: Herpes simplex virus 1; read-out: EC50

Rows are shuffled and stem from different studies. Blank or dashed fields: not listed here. ECn: concentration that inhibits the pathogen or its effect by n%.

structure,strain,cells,method,value
Fc1ccc(-c2cc3c(-c4ccnc(NC5CCCC5)n4)ccc(NC4CCC4)n3n2)cc1,SC16,VERO 76,antigen / hybridisation,0.41 µM
C#Cc1nc2c(N)ncnc2n1[C@H]1C[C@H](O)[C@@H](CO)O1,KOS,ESM,cytopathic effect,>4 µg/mL
Nc1nc2c(ncn2C/C=C\CO)c(=O)[nH]1,C42,BHK,plaque count,25 µM
Oc1ccc(-c2cc3c(-c4ccnc(NC5CCCC5)n4)ccc(NC4CCCC4)n3n2)cc1,SC16,VERO 76,antigen / hybridisation,10.1 µM
CCCc1cn([C@H]2C[C@H](O)[C@@H](CO)O2)c(=O)[nH]c1=O,KOS,BSC-1,cytopathic effect,15 µg/mL
Cc1cn([C@@H]2O[C@@H](CO)[C@H](O)[C@H]2O)c(=O)[nH]c1=O,F,VERO B,cytopathic effect,>1000 µM
O=C1C2=C(SCCS2)C(=O)N1CCCCN1CCN(c2ccc(F)cc2)CC1,,VERO 76,plaque count,19 µM
Nc1ncnc2c1ncn2[C@@H]1O[C@H](CO)[C@@H](O)[C@@H]1O,Clinical isolate HL-34,MEF,plaque count,27 µM
Cc1nc(Cl)c([N+](=O)[O-])c(N2CC[N+]3(CC2)CC[N+]2(CCN(c4nc(C)nc(Cl)c4[N+](=O)[O-])CC2)CC3)n1,,GMK,cytopathic effect,2.02 µg/mL
CCc1cn([C@@H]2OC3COP(=O)(O)OC3[C@H]2O)c(=O)nc1N,KOS,,,>400 µg/mL
Nc1nc2c(ncn2CC[C@@H](O)CO)c(=O)[nH]1,C42,SIRC,plaque count,1.4 µM
C[C@H]1[C@H](O)[C@@H](CO)O[C@H]1n1cc(Br)c(=O)[nH]c1=O,Hangai,RPMI8226,cytopathic effect,6.52 µg/mL
O=Cc1cn([C@H]2C[C@H](O)[C@@H](CO)O2)c(=O)[nH]c1=O,42-78,HELF,plaque count,>500 µM
N#Cc1cc(C(=O)O)c(=O)n2c1[nH]c1ccccc12,KOS,HEF,plaque count,>40 µg/mL
Brc1ccc(-c2cc3c(-c4ccnc(NC5CCC5)n4)ccc(NC4CCC4)n3n2)cc1,SC16,VERO 76,antigen / hybridisation,2.82 µM
Nc1ncnc2c1ncn2[C@@H]1O[C@@H](CO)[C@H](O)[C@H]1O,F,VERO B,cytopathic effect,>1000 µM
CSc1nsc(-c2ccc(OCCCOc3ccccc3)cc2)c1C#N,F,HEP-2/L-929/VERO,plaque count,>20 µM
O=[N+]([O-])c1c(N2CC[N+]3(CC2)CC[N+]2(CCNCC2)CC3)ncnc1N1CC[N+]2(CC1)CC[N+]1(CCN(c3ncnc(N4CC[N+]5(CC4)CC[N+]4(CCNCC4)CC5)c3[N+](=O)[O-])CC1)CC2,,GMK,cytopathic effect,3.71 µg/mL
CCOC(=O)c1cc(C(=O)O)c(=O)n2c1[nH]c1ccccc12,KOS,HEF,plaque count,7.3 µg/mL
CCCC#Cc1nc2c(N)ncnc2n1[C@H]1C[C@H](O)[C@@H](CO)O1,B2006 (TK-),ESM,cytopathic effect,100 µg/mL
C[C@H]1[C@H](O)[C@@H](CO)O[C@H]1n1cc(I)c(=O)[nH]c1=O,F,RPMI8226,cytopathic effect,7.14 µg/mL
FC(F)(F)c1cccc(-c2cc3c(-c4ccnc(NC5CCCC5)n4)ccc(NC4CCCC4)n3n2)c1,SC16,VERO 76,antigen / hybridisation,0.27 µM
O=c1[nH]c(=O)n([C@H]2C[C@H](O)[C@@H](CO)O2)cc1F,,Primary rabbit kidney cells,cytopathic effect,0.16 µM
CSc1nsc(-c2ccc(OCCOc3ccccc3)cc2)c1C#N,F,HEP-2/L-929/VERO,plaque count,>20 µM
NN1CC[N+]2(CC1)CC[N+]1(CCN(N)CC1)CC2,,GMK,cytopathic effect,71.92 µg/mL
O=c1[nH]c(=O)n([C@H]2C[C@H](O)[C@@H](CO)O2)cc1I,77,HELF,plaque count,70 µM
O=c1[nH]c(=O)n([C@H]2C[C@H](O)[C@@H](CO)O2)cc1I,,Human skin fibroblasts,cytopathic effect,0.57 µM
c1cc(-c2ccc(NC3CCCC3)n3nc(-c4ccc(OCC5CCC5)cc4)cc23)nc(NC2CCCC2)n1,SC16,VERO 76,antigen / hybridisation,0.35 µM
O=c1[nH]c(=O)n([C@@H]2O[C@H](CO)[C@@H](O)[C@@H]2O)cc1/C=C/Br,77,HELF,plaque count,0.045 µM
CSc1nsc(-c2ccc(OCCCc3ccccc3)cc2)c1C#N,F,HEP-2/L-929/VERO,plaque count,>20 µM
CCCCCC[C@@H]([C@H](C)O)n1cnc2c(N)ncnc21,,HELA F,,<50 µM
O=c1ccn([C@@H]2O[C@H](CO)[C@@H](O)[C@H]2O)c(=O)[nH]1,V3,HELF,plaque count,>1000 µM
O=c1[nH]c(=O)n([C@H]2C[C@H](O)[C@@H](CO)O2)cc1Br,,Primary rabbit kidney cells,cytopathic effect,0.32 µM
CCCCCCc1cn([C@@H]2O[C@H](COP(=O)(O)O)[C@@H](O)[C@H]2O)c(=O)nc1N,F,,,>400 µg/mL
Nc1nc2c(ncn2CCCCO)c(=O)[nH]1,C42,BHK,plaque count,16 µM
CCc1cn([C@H]2C[C@H](O)[C@@H](CO)O2)c(=O)[nH]c1=O,77,HELF,plaque count,2.1 µM
c1cc(NC2CCCCC2)cc(-c2cc3c(-c4ccnc(NC5CCC5)n4)ccc(NC4CCC4)n3n2)c1,SC16,VERO 76,antigen / hybridisation,3.24 µM
Nc1nc2c(ncn2COCCO)c(=O)[nH]1,F21664 (acyclovir-susceptible),HFF,cytopathic effect,0.5 µg/mL
CSc1nsc(-c2ccc(OCCCCOc3ccc(C#N)cc3)cc2)c1C#N,F,HEP-2/L-929/VERO,plaque count,>2 µM
[O-][n+]1onc2ncnc(N3CC[N+]4(CC3)CC[N+]3(CCN(c5ncnc6no[n+]([O-])c56)CC3)CC4)c21,K1R,GMK,plaque count,8.4 µM
Nc1nc2c(ncn2CC[C@@H](O)CO)c(=O)[nH]1,C42,SIRC,plaque count,2.2 µM
c1ccc(-c2cccc(-c3cc4c(-c5ccnc(NC6CCCC6)n5)ccc(NC5CCCC5)n4n3)c2)cc1,SC16,VERO 76,antigen / hybridisation,2.18 µM
CCCCc1cn([C@@H]2O[C@H](COP(=O)(O)O)[C@@H](O)[C@H]2O)c(=O)nc1N,McIntyre,,,>400 µg/mL
c1ccc(-c2cc3c(-c4ccnc(NC5CCCC5)n4)ccc(NC4CCCC4)n3n2)cc1,SC16,VERO 76,antigen / hybridisation,0.62 µM
Nc1ncnc2c1ncn2C[C@@H](CO)OCP(=O)(O)O,KOS,WI-38,plaque count,5 µM
O=Cc1cn([C@@H]2O[C@H](CO)[C@@H](O)[C@@H]2O)c(=O)[nH]c1=O,77,HELF,plaque count,80 µM
Nc1nc2c(ncn2CCC(CO)CO)c(=O)[nH]1,KOS,MRC-5,plaque count,0.7 µg/mL
CCCCCC#Cc1nc2c(N)ncnc2n1[C@H]1C[C@H](O)[C@@H](CO)O1,B2006 (TK-),ESM,cytopathic effect,>100 µg/mL
CCCc1cn([C@H]2C[C@H](O)[C@@H](COP(=O)(O)O)O2)c(=O)[nH]c1=O,KOS,HEP-2,cytopathic effect,0.8 µg/mL
O=C(Cc1cnc2[nH]c3ccccc3n2c1=O)c1ccccc1,KOS,HEF,plaque count,>8 µg/mL
C/C=C\c1nc2c(N)ncnc2n1[C@H]1C[C@H](O)[C@@H](CO)O1,G,ESM,cytopathic effect,>100 µg/mL
CCN(CC)C(=O)N1CCN(c2ncnc(N3CC[N+]4(CC3)CC[N+]3(CCN(c5ncnc(N6CCN(C(=O)N(CC)CC)CC6)c5[N+](=O)[O-])CC3)CC4)c2[N+](=O)[O-])CC1,,GMK,cytopathic effect,5.15 µg/mL
Nc1ncnc2c1ncn2[C@@H]1O[C@H](COP(=O)(O)O)[C@@H](O)[C@@H]1O,Clinical isolate HL-34,MEF,plaque count,27 µM
CCCCCCc1cn([C@@H]2OC3COP(=O)(O)OC3[C@H]2O)c(=O)nc1N,McIntyre,,,>400 µg/mL
O=c1[nH]c(=O)n([C@H]2C[C@H](O)[C@@H](CO)O2)cc1F,42-78,HELF,plaque count,156 µM
Cc1nc(N2CC[N+]3(CC2)CC[N+]2(CCNCC2)CC3)c([N+](=O)[O-])c(N2CC[N+]3(CC2)CC[N+]2(CCNCC2)CC3)n1,,GMK,cytopathic effect,1.48 µg/mL
Cc1cn([C@@H]2OC3COP(=O)(O)OC3[C@H]2O)c(=O)nc1N,McIntyre,,,>400 µg/mL
C[C@H]1[C@H](O)[C@@H](CO)O[C@H]1n1cc(Br)c(N)nc1=O,Hangai,RPMI8226,cytopathic effect,1.42 µg/mL
Brc1cccc(-c2cc3c(-c4ccnc(NC5CCCC5)n4)ccc(NC4CCCC4)n3n2)c1,SC16,VERO 76,antigen / hybridisation,0.31 µM
Nc1ncnc2c1ncn2[C@H]1C[C@@H](O)[C@H](CO)O1,F,VERO B,cytopathic effect,>1000 µM

A second listing of 8 rows from above:

structure | strain | cells | method | value
O=c1[nH]c(=O)n([C@@H]2O[C@H](CO)[C@@H](O)[C@@H]2O)cc1/C=C/Br | 77 | HELF | plaque count | 0.045 µM
Brc1ccc(-c2cc3c(-c4ccnc(NC5CCC5)n4)ccc(NC4CCC4)n3n2)cc1 | SC16 | VERO 76 | antigen / hybridisation | 2.82 µM
O=c1[nH]c(=O)n([C@H]2C[C@H](O)[C@@H](CO)O2)cc1Br |  | Primary rabbit kidney cells | cytopathic effect | 0.32 µM
Cc1nc(N2CC[N+]3(CC2)CC[N+]2(CCNCC2)CC3)c([N+](=O)[O-])c(N2CC[N+]3(CC2)CC[N+]2(CCNCC2)CC3)n1 |  | GMK | cytopathic effect | 1.48 µg/mL
CCCc1cn([C@H]2C[C@H](O)[C@@H](CO)O2)c(=O)[nH]c1=O | KOS | BSC-1 | cytopathic effect | 15 µg/mL
Cc1nc(Cl)c([N+](=O)[O-])c(N2CC[N+]3(CC2)CC[N+]2(CCN(c4nc(C)nc(Cl)c4[N+](=O)[O-])CC2)CC3)n1 |  | GMK | cytopathic effect | 2.02 µg/mL
CSc1nsc(-c2ccc(OCCCc3ccccc3)cc2)c1C#N | F | HEP-2/L-929/VERO | plaque count | >20 µM
CCOC(=O)c1cc(C(=O)O)c(=O)n2c1[nH]c1ccccc12 | KOS | HEF | plaque count | 7.3 µg/mL